Like-named read-outs stand apart in the source and are kept apart here.
System: BAE cells
Experiment: Cell viability assay, attached cells (methylene blue), proliferating or growth-quiescent cells
Type: cell-based, bovine
Conditions: 48 h

Substance: phenyl arsenoxide
- IC50 (read-out: IC50 (toxicity), growth-quiescent BAE cells, 0.25% serum): 200 nM
- IC50 (read-out: IC50 (toxicity), proliferating BAE cells, 10% serum): 200 nM

Source: patent US9353152B2, “Induction of the mitochondrial permeability transition” (NewSouth Innovations Pty Limited, priority 2002, dated 2016)
